A mixed list of measured activities; the numbers were collected in NIAID ChemDB.

Shared fields: growth or infection tests; organism: Mycobacterium tuberculosis

ECn is the concentration giving n% inhibition of infection, replication or growth. MIC50, MIC90 and the like: level of inhibition, or share of isolates inhibited. Blank or dashed fields: not listed here. Percent inhibition refers to the dose given; in toxicity tests it is the harm to the cells. MIC bound: limit read from a one-dose screen. Lines come from different laboratories, so protocols vary.

compound	endpoint	strain	dose	changes	method	conditions	value
CCCCC(CC)CN1CN(CC(CC)CCCC)CC(C)(NCCNCC2CCCO2)C1	MIC	-	-	-	-	-	12.5 µM
CCOC(=O)Nc1cc(NC(C)C(O)Cc2ccccc2)c([N+](=O)[O-])c(N)n1	EC50	H37Rv	-	-	-	-	<12.5 µg/mL
CN1c2ccccc2CCC1CCc1ccc2c(c1)OCO2	MIC	MT2	-	-	-	-	50 µg/mL
NC[C@H]1O[C@H](O[C@H]2[C@H](O)[C@@H](O[C@H]3O[C@H](CO)[C@@H](O)[C@H](N)[C@H]3O)[C@H](N)C[C@@H]2N)[C@H](O)[C@@H](O)[C@@H]1O	MIC	Isolate 15	-	-	-	-	2 µg/mL
CCOc1ccc(-c2ccccc2)cc1	MIC	H37Rv	-	-	-	-	>100 µg/mL
CCOc1ccccc1CNCCNCCNc1ccccc1	MIC	-	-	-	-	-	25 µM
Fc1ccc(-n2c(=S)oc3ccc(Cl)cc3c2=S)cc1	MIC	My 331/88	-	-	-	21 d	2 µM
COc1ccc(CCN2C(=O)C(=O)N(c3ccc(Cl)c(Cl)c3)C2=O)cc1OC	inhibition	H37Rv	12.5 µg/mL	-	BACTEC	-	96%
Fc1ccccc1CCNCCNCCc1ccc(Cl)cc1Cl	MIC	-	-	-	-	-	50 µM
O=CC(S(=O)(=O)[O-])S(=O)(=O)[O-].[K+].[K+]	MIC	H37Rv	-	-	-	-	>100 µg/mL
CN(C)CCNc1ccc(CO)c2oc3ccc(O)cc3c(=O)c12	MIC bound	H37Rv	-	-	BACTEC	-	>12.5 µg/mL
COc1ccc(CCNCCNC(c2ccccc2)c2ccccc2)cc1OC	MIC	-	-	-	-	-	50 µM
NC(=O)CCCCCCCCC(N)=O	MIC	H37Rv	-	-	-	-	100 µg/mL
Cc1ccc(S(=O)(=O)N/N=C(\CC(=O)c2c(C)n([O-])c3ccccc3[n+]2=O)C(=O)Nc2ccccc2C)cc1	inhibition	H37Rv	12.5 µg/mL	-	BACTEC	-	14%
Nc1cc2ccc(S(=O)(=O)O)cc2cc1S(=O)(=O)O	MIC	H37Rv	-	-	-	-	50 µg/mL
CCOC(=O)Nc1cc(NC(CC)C(=O)c2ccccc2)c([N+](=O)[O-])c(N)n1	inhibition	H37Rv	12.5 µg/mL	-	-	-	0%
CCC(=O)CCC1=Nc2nnc(CCCCc3nnc4n3C(=O)C(CCC(=O)CC)=N4)n2C1=O	inhibition	H37Rv	12.5 µg/mL	-	BACTEC	-	0%
Cc1cc(O)c2c(c1)oc(=O)c1ccc(C)cc12	MIC	H37Rv	-	-	-	-	>100 µg/mL
CCOC(=O)Nc1cc(NCC(=O)c2ccc([N+](=O)[O-])cc2)c([N+](=O)[O-])c(N)n1	EC50	H37Rv	-	-	-	-	>12.5 µg/mL
CCOC(=O)CN1C(=O)S/C(=C/c2ccc([N+](=O)[O-])o2)C1=O	inhibition	H37Rv	12.5 µg/mL	-	BACTEC	-	100%
COc1ccccc1CCNCCNC/C=C(\C)CCC=C(C)C	MIC	-	-	-	-	-	50 µM
O=C1CC(c2ccccc2)Oc2cc(Br)ccc21	inhibition	H37Rv	12.5 µg/mL	-	-	-	15%
Clc1ccc(OCCN(CCOc2ccc(Cl)cc2)C2CCCCC2)cc1	MIC	H37Rv	-	-	-	-	12.5 µg/mL
NC1CCN(c2nc3c(cc2F)c(=O)c(C(=O)O)cn3-c2ccc(F)cc2F)C1	MIC90	DRUG-SUS	-	-	-	-	>8 µg/mL
CN(C)CNC(=S)S	MIC	H37Rv	-	-	-	-	3.1 µg/mL
CO[C@H]1/C=C/O[C@@]2(C)Oc3c(C)c(O)c4c(O)c(c(/C=N/N5CCN(C/C=C/c6ccccc6)CC5)c(O)c4c3C2=O)NC(=O)/C(C)=C\C=C\[C@H](C)[C@H](O)[C@@H](C)[C@@H](O)[C@@H](C)[C@H](OC(C)=O)[C@@H]1C	MBC	2275 (rifampin-resistant)	-	-	-	-	0.8 µg/mL
C/C(=N\Nc1nc2ccccc2s1)c1ccc2c(c1)Sc1ccccc1O2	MIC bound	H37Rv	-	-	BACTEC	-	≤12.5 µg/mL
Fc1ccccc1CNCCNCCCCc1ccccc1	MIC	-	-	-	-	-	50 µM
O=C1N=C2SC=C(NC(=S)Nc3ccccc3)N2NC12c1ccccc1-c1ccccc12	MIC bound	H37Rv	-	-	BACTEC	-	>12.5 µg/mL
CC(=O)NC[C@H]1CN(c2ccc(N3CCOCC3)c(F)c2)C(=O)O1	MIC	2S	-	-	-	-	0.5 µg/mL
COc1ccc(CCC2CCc3ccccc3N2C)cc1OC	MIC	MT1	-	-	-	-	50 µg/mL
O=C1c2ccccc2C(=O)N1CCN1C(=O)c2ccccc2C1=O	MIC	H37Rv	-	-	-	-	>100 µg/mL
CO[C@H]1/C=C/O[C@@]2(C)Oc3c(C)c(O)c4c(O)c(c(/C=N/N5CCN(C)CC5)c(O)c4c3C2=O)NC(=O)/C(C)=C\C=C\[C@H](C)[C@H](O)[C@@H](C)[C@@H](O)[C@@H](C)[C@H](OC(C)=O)[C@@H]1C	MIC	Isolate 9	-	-	-	-	>32 µg/mL
COc1ccc2oc(=S)n(-c3ccc(F)cc3)c(=S)c2c1	MIC	My 331/88	-	-	-	14 d	16 µM
C=CCOc1ccc(Br)cc1	MIC	H37Rv	-	-	-	-	>100 µg/mL
NNC(=O)c1ccncc1	MIC	Strain 32	-	-	-	-	0.06 µg/mL
CC(=O)N/C(=C\c1ccc(/C=C(/NC(C)=O)C2=NC3C(=O)c4ccccc4C(=O)C3N2)cc1)C1=NC2C(=O)c3ccccc3C(=O)C2N1	MIC bound	H37Rv	-	-	BACTEC	-	≤12.5 µg/mL
O=C1CC(c2ccccc2)Oc2cc(I)ccc21	EC50	-	-	-	-	-	>12.5 µg/mL
CC[C@H]1OC(=O)[C@H](C)[C@@H](O[C@H]2C[C@@](C)(OC)[C@@H](O)[C@H](C)O2)[C@H](C)[C@@H](O[C@@H]2O[C@H](C)C[C@H](N(C)C)[C@H]2O)[C@](C)(O)C[C@@H](C)CN(C)[C@H](C)[C@@H](O)[C@]1(C)O	MBC	ATCC 35827	-	-	-	-	>8 µg/mL
C[C@@H]1[C@@H](NCCNCCc2ccc(Cl)cc2Cl)C[C@H]2C[C@@H]1C2(C)C	MIC	-	-	-	-	-	50 µM
CC(NCCN)c1ccccc1	MIC	H37Rv	-	-	-	-	>100 µg/mL
CO[C@H]1/C=C/O[C@@]2(C)Oc3c(C)c(O)c4c(=O)c(c5oc6cc(N7CCN(CC(C)C)CC7)cc(=O)c6nc5c4c3=C2O)NC(=O)/C(C)=C\C=C\[C@H](C)[C@H](O)[C@@H](C)[C@@H](O)[C@@H](C)[C@H](OC(C)=O)[C@@H]1C	MIC	TN657	-	-	-	-	1 µg/mL
O=C(c1ccc(O)c(O)c1)c1ccc(O)c(O)c1	MIC	H37Rv	-	-	-	-	>100 µg/mL
C[C@H]1COc2c(N3CCN(C)CC3)c(F)cc3c(=O)c(C(=O)O)cn1c23	MIC	Strain 7	-	-	-	-	0.25 µg/mL
NNC(=O)CNC(=O)c1ccc(Cl)cc1Cl	inhibition	H37Rv	12.5 µg/mL	-	BACTEC	-	10%
CCOC(=O)Nc1cc(NCC(=O)CN(C)c2ccc(C(=O)OC)cc2)c([N+](=O)[O-])c(N)n1	EC50	H37Rv	-	-	-	-	>12.5 µg/mL
COc1ccc(O)c(C(=O)/C=C/c2ccco2)c1	inhibition	H37Rv	12.5 µg/mL	-	-	-	0%
CCCC(C)C1(CC)C(=O)NC(=S)NC1=O	MIC	H37Rv	-	-	-	-	>100 µg/mL
C[C@H]1C[C@H](N)CN1c1cc2c(cc1F)c(=O)c(C(=O)O)cn2-c1ccc(F)cc1F	MIC	ATCC 35828	-	-	-	-	4 µg/mL
NC(N)=N/N=C1\C(=O)N(C2CCCCCC2)C(=O)C1C(=O)NC1CCCCCC1	inhibition	H37Rv	12.8 µg/mL	-	BACTEC	-	-5%
Nc1ccc(C(=O)/C=C/c2cccnc2N)cc1	EC50	-	-	-	-	-	>12.5 µg/mL
OC[C@H]1O[C@@H](n2cnc3c2NC=NC[C@H]3O)[C@H](O)[C@@H]1O	MIC	H37Rv	-	-	BACTEC	-	≥12.5 µg/mL
C[C@H]1COc2c(N3CCN(C)CC3)c(F)cc3c(=O)c(C(=O)O)cn1c23	MIC	Isolate 12	-	-	-	-	0.25 µg/mL
Cc1ccc(Nc2nc(C)c(C(/C=C/c3ccc4c(c3)OCO4)=N/Nc3ccc([N+](=O)[O-])cc3[N+](=O)[O-])s2)c([N+](=O)[O-])c1	inhibition	H37Rv	6.25 µg/mL	-	resazurin	-	-95%
Cc1cc(C)c(O)c(N=Nc2ccccc2C(=O)O)c1	MIC	H37Rv	-	-	-	-	50 µg/mL
C[C@H]1COc2c(N3CCN(C)CC3)c(F)cc3c(=O)c(C(=O)O)cn1c23	MBC	H37Rv	-	-	-	-	0.25 µg/mL
COc1ccc(C2CC(=O)c3c(OC)cc(OC)cc3O2)cc1	EC50	-	-	-	-	-	>12.5 µg/mL
O=c1oc2ccc(F)cc2c(=S)n1-c1ccc(F)cc1	MIC	My 331/88	-	-	-	21 d	2 µM
Cc1cc(C)c(CC(=O)c2ccc[n+](C)c2)c(C)c1.[Cl-]	MIC	H37Rv	-	-	-	-	50 µg/mL
COc1cc(OC)c2c(c1)OC(c1ccc(O)cc1)CC2=O	inhibition	-	12.5 µg/mL	-	-	-	0%
C[C@@H]1CN(c2c(F)c(N)c3c(=O)c(C(=O)O)cn(C4CC4)c3c2F)C[C@H](C)N1	MIC	ATCC 35822	-	-	-	-	0.125 µg/mL
O=C(/C=C/c1cccnc1)c1ccc(F)cc1	EC50	-	-	-	-	-	<12.5 µg/mL
CC1=CC(C)=NC2NNC(=O)C12	MIC bound	H37Rv	-	-	BACTEC	-	>12.5 µg/mL
CN(C)C1CCc2cc3c(cc2C1O)CCCC3.Cl	MIC	H37Rv	-	-	-	-	50 µg/mL
CO[C@H]1/C=C/O[C@@]2(C)Oc3c(C)c(O)c4c(O)c(c5c(c4c3C2=O)NC2(CCN(CC(C)C)CC2)N=5)=NC(=O)/C(C)=C\C=C\[C@H](C)[C@H](O)[C@@H](C)[C@@H](O)[C@@H](C)[C@H](OC(C)=O)[C@@H]1C	MIC	33 (rifampin-resistant)	-	-	-	-	0.05 µg/mL
COc1ccc(CSC(=S)Nc2cc(Cl)c(Cl)cc2Cl)cc1	MIC bound	H37Rv	-	-	BACTEC	-	≤128 µg/mL
C[C@H]1COc2c(N3CCN(C)CC3)c(F)cc3c(=O)c(C(=O)O)cn1c23	MIC	4S	-	-	-	-	0.5 µg/mL
CCCCOc1nc(N)nc(N(CC)CCO)n1	MIC	H37Rv	-	-	-	-	>100 µg/mL
CC(C)c1ccc2c(c1)CC[C@H]1[C@](C)(CNCCN[C@H]3C[C@H]4C[C@@H]([C@@H]3C)C4(C)C)CCC[C@]21C	MIC	-	-	-	-	-	25 µM
O=S([O-])CNc1ccc(S(=O)(=O)c2ccc(NCS(=O)[O-])cc2)cc1.[Na+].[Na+]	MIC	H37Rv	-	-	-	-	>100 µg/mL
c1ccc([C@H]2C[C@@H]2NCCNC2C3CC4CC(C3)CC2C4)cc1	MIC	-	-	-	-	-	25 µM
O=S(=O)([O-])CCS(=O)(=O)[O-].[Na+].[Na+]	MIC	H37Rv	-	-	-	-	100 µg/mL
N#C/C(=C\NC(=S)c1ccncc1)c1nc2ccccc2s1	MIC bound	H37Rv	-	-	resazurin	-	>6.25 µg/mL
CCOC(=O)Nc1cc(NC/C(=N/O)c2cccc(OC)c2)c([N+](=O)[O-])c(N)n1	EC50	H37Rv	-	-	-	-	>12.5 µg/mL
NNC(=O)c1ccncc1	MIC	Clinical isolate BRF 23	-	INH resistant	resazurin	-	2 µg/mL
Cc1ccc2oc(=S)n(-c3ccc(Cl)c(Cl)c3)c(=S)c2c1	MIC	My 331/88	-	-	-	14 d	0.5 µM
O=C(CNc1cccc(Cl)c1)Nn1c(-c2ccccc2)nc2ccccc2c1=O	MIC bound	H37Rv	-	-	BACTEC	-	>12.5 µg/mL
O=C1c2c(I)c(I)c(I)c(I)c2C(=O)N1CCO	MIC	H37Rv	-	-	-	-	50 µg/mL
COC(=O)C1=C(C(=O)OC)P2(c3ccccc3)(c3ccccc3)S/C(=N\P(C)(C)=S)N2C1(c1ccccc1)c1ccccc1	MIC	H37Rv	-	-	BACTEC	-	≥12.5 µg/mL
O=C1CC(c2ccc(Cl)cc2)Oc2ccccc21	inhibition	-	12.5 µg/mL	-	-	-	7%
COCCCn1c(C(Cl)(Cl)Cl)nn2c(=O)c3ccccc3nc2c1=O	MIC bound	H37Rv	-	-	BACTEC	-	>12.5 µg/mL
CNc1ccc(C(=O)c2ccccc2C(=O)O)cc1[N+](=O)[O-]	MIC	H37Rv	-	-	-	-	>100 µg/mL
COc1ccc2c(c1)[n+]([O-])c(/C(C)=N/NC(=O)c1ccccc1O)c(C)[n+]2[O-]	MIC	PZA-R	-	-	-	-	6.3 µg/mL
Nc1[nH]c(=S)[nH]c(=O)c1-c1ccccc1	MIC	H37Rv	-	-	-	-	>100 µg/mL

The last 7 rows once more:

compound,endpoint,strain,dose,changes,method,conditions,value
O=C1c2c(I)c(I)c(I)c(I)c2C(=O)N1CCO,MIC,H37Rv,-,-,-,-,50 µg/mL
COC(=O)C1=C(C(=O)OC)P2(c3ccccc3)(c3ccccc3)S/C(=N\P(C)(C)=S)N2C1(c1ccccc1)c1ccccc1,MIC,H37Rv,-,-,BACTEC,-,≥12.5 µg/mL
O=C1CC(c2ccc(Cl)cc2)Oc2ccccc21,inhibition,-,12.5 µg/mL,-,-,-,7%
COCCCn1c(C(Cl)(Cl)Cl)nn2c(=O)c3ccccc3nc2c1=O,MIC bound,H37Rv,-,-,BACTEC,-,>12.5 µg/mL
CNc1ccc(C(=O)c2ccccc2C(=O)O)cc1[N+](=O)[O-],MIC,H37Rv,-,-,-,-,>100 µg/mL
COc1ccc2c(c1)[n+]([O-])c(/C(C)=N/NC(=O)c1ccccc1O)c(C)[n+]2[O-],MIC,PZA-R,-,-,-,-,6.3 µg/mL
Nc1[nH]c(=S)[nH]c(=O)c1-c1ccccc1,MIC,H37Rv,-,-,-,-,>100 µg/mL